# According to US20100256070:
# B1: purified ADPRT domain of VCE (protein)
# chain: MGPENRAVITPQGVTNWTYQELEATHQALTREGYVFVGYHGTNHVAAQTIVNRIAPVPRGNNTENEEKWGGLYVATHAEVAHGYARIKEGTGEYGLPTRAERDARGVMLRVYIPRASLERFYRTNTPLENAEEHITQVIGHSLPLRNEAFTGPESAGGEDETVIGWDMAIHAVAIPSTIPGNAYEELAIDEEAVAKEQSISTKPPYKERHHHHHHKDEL
# Tests used:
# [1] = target: eEF2 from wild type CHO cells (CHO-K1), P09445
# [2] = target: human eukaryotic elongation factor 2 (eEF2) from 293T cell lysate, P13639
# [3] = target: mutant eEF2 from the DT-resistant CHO line Re1.22C, P09445
protein,measurement,setting,value
B1,ADP-ribosylation with biotin-NAD (immunoblot),[1],VCE modified eEF2 from wild type CHO cells and 293T cells
same,ADP-ribosylation with biotin-NAD (immunoblot),[2],VCE modified eEF2 from wild type CHO cells and 293T cells
same,ADP-ribosylation with biotin-NAD (immunoblot),[3],VCE failed to modified eEF2 from Re1.22C
